Pooled drug test results. Numbers come from NIAID ChemDB, via PubChem.

Shared fields: tests on isolated targets; species: HIV-1; target: Reverse transcriptase

Lines come from different laboratories, so protocols vary.

c1ccc2c(c1)CCN(c1nn3c(-c4ccsc4)nnc3c3ccccc13)C2 ; read-out: IC90 ; strain: KER2008 ; method: RT activity / fluorescence ; result: 29.6 µM
Cc1c(Cc2ccccc2)nc(NCCCCN)[nH]c1=O ; read-out: Ki ; mutations: RT-Y188L ; result: >1000 µM
COc1ccc([C@H]2c3c(cc4c(c3OC)OCO4)C[C@H]3CSC[C@@H]32)cc1OCc1ccccc1 ; read-out: IC50 ; method: nucleotide incorporation ; result: 1.7 µM
O=C(CCc1occc1-c1cccc2ccccc12)Nc1ccccc1[N+](=O)[O-] ; read-out: IC50 ; method: fluorescence ; result: ≥0.1 µM
CCCOC(=O)N1c2ccccc2C=CC1C#N ; read-out: IC50 ; method: nucleotide incorporation ; result: 13.9 µM
NCCCCNc1nc(Cc2ccccc2)cc(=O)[nH]1 ; read-out: Ki ; mutations: RT-L100I ; result: 95 µM
Nc1nc(Nc2ccc(Cl)cc2)nn1S(=O)(=O)c1ccc2ccccc2c1 ; read-out: IC50 ; strain: IIIB ; method: luciferase / RT activity ; result: 9.3 µM
COC(=O)N1c2ccccc2C=CC1C#N ; read-out: IC50 ; method: nucleotide incorporation ; result: >50 µM
CC(C)=CCN1Cc2cccc3[nH]c(=S)n(c23)C[C@@H]1C ; read-out: IC50 ; strain: MN ; method: radiometric ; result: 6 µM
COc1ccc2c(c1)CN(c1nn3c(C)nnc3c3ccccc13)CC2 ; read-out: IC50 ; strain: KER2008 ; method: RT activity / fluorescence ; result: 5.26 µM
CC(C)OC(=O)N1c2ccccc2C=CC1C#N ; read-out: IC50 ; method: nucleotide incorporation ; result: 7.4 µM
CCCCCCCCC(OC(C)=O)C(=O)O[C@H]1CC(C)(C)[C@@H]2CC=C(C=O)C3[C@@H](O)OC(=O)[C@@]32[C@H]1O ; read-out: IC50 ; method: nucleotide incorporation ; result: >197 µM
C=[N+]([O-])c1ccccc1NC(=O)CNc1nnnn1-c1cccc2ccccc12 ; read-out: IC50 ; method: fluorescence ; result: ≥0.1 µM
Cc1nnc2c3ccccc3c(N3Cc4ccccc4C(C)(C)C3)nn12 ; read-out: IC90 ; strain: 98US_MSC5016 ; method: RT activity / fluorescence ; result: 70.3 µM
O=C1c2c(Cl)c(Cl)c(Cl)c(Cl)c2C(=O)N1c1nc(-c2cccs2)c2c(n1)-c1ccccc1CC2 ; read-out: IC50 ; method: nucleotide incorporation ; result: 2.11 µM
COc1c(C(=O)/C=C(/C)Nc2ccc(Cl)cc2)c(O)c(S(=O)(=O)OC2CCCCC2)c2occc12 ; read-out: IC50 ; method: RT activity / radiometric ; result: 0.0000082 µM
Cc1cc(S(N)(=O)=O)ccc1NC(=O)COc1ccc(Cl)cc1C(=O)c1cc(F)cc(C(F)(F)F)c1 ; read-out: IC50 ; strain: IIIB ; method: fluorescence ; result: 0.003 µM
COc1c(-c2cc(C)n(C)n2)c(O)c(S(=O)(=O)OC2CCCCC2)c2occc12 ; read-out: IC50 ; method: RT activity / radiometric ; result: 0.0000049 µM
CC(C)COC(=O)N1c2ccc([N+](=O)[O-])cc2C=CC1C#N ; read-out: IC50 ; mutations: RT-P236L ; method: nucleotide incorporation ; result: 14.6 µM
CSc1nc(-c2cccs2)c2c(n1)-c1ccccc1CC2 ; read-out: IC50 ; method: nucleotide incorporation ; result: 2.33 µM
COc1cccc(Cn2cccc2/C=C/C(=O)CC(=O)C(=O)O)c1 ; read-out: IC50 ; method: RT activity / nucleotide incorporation ; result: >50 µM
CO[C@H]1O[C@H](C2=NO[C@@H](C[C@H]3O[C@H](CO)[C@@H](O)[C@H](O)[C@@H]3O)C2)[C@@H](O)[C@H](O)[C@H]1O ; read-out: IC50 ; method: RT activity / absorbance ; result: >50 µM
CCOC(=O)N1c2ccccc2C=CC1C#N ; read-out: IC50 ; method: nucleotide incorporation ; result: 22 µM
O=C(CSc1nnnn1-c1ccccc1C(F)F)Nc1ccccc1[N+](=O)[O-] ; read-out: IC50 ; method: fluorescence ; result: 0.05–0.1 µM
CC1(C)O[C@@H]2[C@H](O1)[C@H](O)O[C@@H]2C1=NO[C@@H](C[C@H]2O[C@H](CO)[C@H](O)[C@H](O)[C@H]2O)C1 ; read-out: IC50 ; method: RT activity / absorbance ; result: 4.31 µM
O=C(Nc1ccc2c(O)c(N=Nc3ccc(C(=O)O)cc3)c(S(=O)(=O)O)cc2c1)Nc1ccc2c(O)c(N=Nc3ccc(C(=O)O)cc3)c(S(=O)(=O)O)cc2c1 ; read-out: IC50 ; method: nucleotide incorporation ; result: 0.316 µM
CCOC(=O)C(=O)CC(=O)/C=C/c1cc(-c2ccccc2)cn1Cc1ccc(F)cc1 ; read-out: IC50 ; method: RT activity / nucleotide incorporation ; result: >50 µM
COC(=O)[C@H](Cc1ccccc1)NP(=O)(OCCC#N)OC[C@H]1O[C@@H](n2cc(C)c(=O)[nH]c2=O)C[C@@H]1N=[N+]=[N-] ; read-out: IC50 ; result: >100 µM
Cc1cc(C)c(-n2nnnc2SCC(=O)c2ccccc2Cl)c(C)c1 ; read-out: IC50 ; method: fluorescence ; result: ≥0.1 µM
S=c1nc2c(c(-c3cccs3)[nH]1)CCc1ccccc1-2 ; read-out: IC50 ; method: nucleotide incorporation ; result: 8.1 µM
CC1(C)O[C@@H]2[C@H](O1)[C@H](O)O[C@@H]2C1=NO[C@H](C[C@H]2O[C@H](CO)[C@@H](O)[C@H](O)[C@@H]2O)C1 ; read-out: IC50 ; method: RT activity / absorbance ; result: >50 µM
CC(C)Nc1cccnc1N1CCN(C(=O)c2cc3ccc(O)cc3[nH]2)CC1 ; read-out: IC50 ; method: scintillation proximity ; result: 1.26 µM
CCCCCCCCC(O)C(=O)O[C@H]1CC(C)(C)[C@@H]2CC=C(C=O)C3[C@@H](O)OC(=O)[C@@]32[C@H]1O ; read-out: IC50 ; method: nucleotide incorporation ; result: 91 µM
Cc1cn([C@H]2C[C@H](F)[C@@H](COP(=O)(O)OP(=O)(O)OP(=O)(O)O)O2)c(=O)[nH]c1=O ; read-out: IC50 ; strain: IIIB ; method: nucleotide incorporation ; result: 0.123 µM
Cc1cc(C#N)ccc1Nc1nc(N)n(S(=O)(=O)c2cccc3cc(C#N)ccc23)n1 ; read-out: IC50 ; strain: IIIB ; method: luciferase / RT activity ; result: 14 µM
COC(=O)[C@H](Cc1c[nH]c2ccccc12)NP(=O)(O)OC[C@H]1O[C@@H](n2cc(C)c(=O)[nH]c2=O)C[C@@H]1N=[N+]=[N-] ; read-out: IC50 ; result: >100 µM
O=c1cc(Cc2ccccc2)nc(NCCCCO)[nH]1 ; read-out: Ki ; mutations: RT-V179D ; result: >1000 µM
CC(C)=CCC/C(C)=C/CC/C(C)=C/CC/C(C)=C/CC/C(C)=C/CC/C(C)=C/Cc1cc(O)ccc1O ; read-out: IC50 ; method: nucleotide incorporation ; result: 2.7–2.8 µM
CC1(C)O[C@@H]2[C@H](O1)[C@H](O)O[C@@H]2C1=NO[C@@H](C[C@H]2O[C@H](CO)[C@@H](O)[C@H](O)[C@@H]2O)C1 ; read-out: IC50 ; method: RT activity / absorbance ; result: >50 µM
COc1c(C(=O)/C=C(/C)Nc2ccccc2)c(O)c(S(=O)(=O)OC2CCCCC2)c2occc12 ; read-out: IC50 ; method: RT activity / radiometric ; result: 0.0000085 µM
O=C(/C=C/c1cccn1Cc1ccc(F)cc1)CC(=O)C(=O)O ; read-out: IC50 ; method: RT activity / nucleotide incorporation ; result: >50 µM
CCOC(=O)CCSc1nc(-c2cccs2)c2c(n1)-c1ccccc1CC2 ; read-out: IC50 ; method: nucleotide incorporation ; result: 4.4 µM
CCCCOC(=O)N1c2ccccc2C=CC1C#N ; read-out: IC50 ; method: nucleotide incorporation ; result: 8 µM
COc1cc([C@H]2c3c(cc4c(c3OC)OCO4)C[C@H]3COC(=O)[C@@H]32)cc(C)c1OC ; read-out: IC50 ; method: nucleotide incorporation ; result: 122 µM
O=C(O)CSc1nc(-c2cccs2)c2c(n1)-c1ccccc1CC2 ; read-out: IC50 ; method: nucleotide incorporation ; result: 17.4 µM
Cc1cccc(CS(=O)(=O)c2cccc[n+]2[O-])c1 ; read-out: IC50 ; method: nucleotide incorporation / radiometric ; result: >500 µg/mL
Nc1cc2c(cc1F)CN(c1nn3c(C4CC4)nnc3c3ccccc13)CC2 ; read-out: IC50 ; strain: 98US_MSC5016 ; method: RT activity / fluorescence ; result: 0.28 µM
COc1c(-c2cc(C)n(C)n2)c(O)c(S(=O)(=O)Oc2ccc([N+](=O)[O-])cc2)c2occc12 ; read-out: IC50 ; method: RT activity / radiometric ; result: 0.0000037 µM
N#CC1C=Cc2cc([N+](=O)[O-])ccc2N1C(=O)OCCBr ; read-out: IC50 ; method: nucleotide incorporation ; result: >50 µM

The first 3 rows once more:

SMILES | read-out | mutations | strain | method | result
c1ccc2c(c1)CCN(c1nn3c(-c4ccsc4)nnc3c3ccccc13)C2 | IC90 | - | KER2008 | RT activity / fluorescence | 29.6 µM
Cc1c(Cc2ccccc2)nc(NCCCCN)[nH]c1=O | Ki | RT-Y188L | - | - | >1000 µM
COc1ccc([C@H]2c3c(cc4c(c3OC)OCO4)C[C@H]3CSC[C@@H]32)cc1OCc1ccccc1 | IC50 | - | - | nucleotide incorporation | 1.7 µM

Blank or dashed fields: not listed here. a–b is a range or a potency band. ICn: concentration for n% inhibition.